Measurements from US4239708A, “P-Phenylene bis[imino(thiocarbonyl)] diphosphoramidic acid esters as anthelmentic agents” (dated 1980).

Experiments:
[1] = system: Nematospiroides dubius; test: Mouse/Helminth Evaluation, N. dubius; settings: mice
[2] = system: Aspicularis tetraptera; test: Mouse/Helminth Evaluation, A. tetraptera; settings: mice, absence or presence of parasites is criterion
[3] = system: Hymenolepis nana; test: Mouse/Helminth Evaluation, H. nana; settings: mice, absence or presence of parasites is criterion

Row | SMILES | activity against N. dubius ([1]; 0.05% in diet for 7 days) | activity against N. dubius ([1]; 50 mg/kg single oral dose) | activity against A. tetraptera ([2]; 0.05% in diet for 7 days) | activity against H. nana ([3]; 0.05% in diet for 7 days) | activity against H. nana ([3]; 50 mg/kg single oral dose) | activity against A. tetraptera ([2]; 50 mg/kg single oral dose) | activity against N. dubius ([1]; 0.025% in diet for 7 days) | activity against N. dubius ([1]; 0.1% in diet for 7 days) | activity against H. nana ([3]; 0.025% in diet for 7 days) | activity against H. nana ([3]; 0.1% in diet for 7 days)
1 | CCOP(=O)(NC(=S)Nc1cc(Cl)c(NC(=S)NP(=O)(OCC)OCC)cc1C)OCC | Inactive | Inactive | Active | Active | Inactive |  |  |  |  | 
2 | CCCSc1c(NC(=S)NP(=O)(OCC)OCC)ccc(NC(=S)NP(=O)(OCC)OCC)c1Cl | Inactive | Inactive | Active | Active | Inactive | Active |  |  |  | 
3 | CC(C)OP(=O)(NC(=S)Nc1ccc(NC(=S)NP(=O)(OC(C)C)OC(C)C)c(Cl)c1)OC(C)C | Inactive | Inactive | Active | Active | Active | Active |  |  |  | 
4 | CCOP(=O)(NC(=S)Nc1ccc(NC(=S)NP(=O)(OCC)OCC)c(C(F)(F)F)c1)OCC | Inactive | Inactive | Active | Active | Inactive | Active |  |  |  | 
5 | COc1cc(NC(=S)NP(=O)(OC(C)C)OC(C)C)ccc1NC(=S)NP(=O)(OC(C)C)OC(C)C | Inactive | Inactive | Active | Active | Active | Inactive |  |  |  | 
6 | CCOP(=O)(NC(=S)Nc1ccc(NC(=S)NP(=O)(OCC)OCC)c(C)c1C)OCC | Inactive | Inactive | Active | Active | Inactive | Active |  |  |  | 
7 | CCOP(=O)(NC(=S)Nc1ccc(NC(=S)NP(=O)(OCC)SCC)c(OC)c1)SCC (centres unmarked) | Inactive |  |  | Inactive |  |  | Inactive | Inactive | Inactive | Inactive
8 | CCOP(=O)(NC(=S)Nc1ccc(NC(=S)NP(=O)(OCC)OCC)c(Cl)c1Cl)OCC | Inactive | Inactive | Active | Active | Inactive | Active |  |  |  | 
9 | CCOP(=O)(NC(=S)Nc1ccc(NC(=S)NP(=O)(OCC)OCC)c(I)c1)OCC | Inactive | Inactive | Active | Active | Active | Inactive |  |  |  | 
10 | CCOP(=O)(NC(=S)Nc1ccc(NC(=S)NP(=O)(OCC)OCC)c(OC)c1Cl)OCC | Inactive | Inactive | Active | Active | Inactive | Active |  |  |  | 
11 | CCOP(=O)(NC(=S)Nc1cc(Sc2ccccc2)c(NC(=S)NP(=O)(OCC)OCC)cc1Cl)OCC | Inactive | Inactive | Active | Active | Inactive | Inactive |  |  |  | 
12 | CCOP(=O)(NC(=S)Nc1ccc(NC(=S)NP(=O)(OCC)OCC)c(C)c1)OCC | Inactive | Inactive | Active | Active | Active | Active |  |  |  | 
13 | CCOP(=O)(NC(=S)Nc1cc(Cl)c(NC(=S)NP(=O)(OCC)OCC)c(OC)c1)OCC | Inactive | Inactive | Active | Inactive | Active | Inactive |  |  |  | 
14 | CCOP(=O)(NC(=S)Nc1ccc(NC(=S)NP(=O)(OCC)OCC)c(Br)c1)OCC | Inactive | Inactive | Inactive | Active | Active | Inactive |  |  |  | 
15 | CCOP(=O)(NC(=S)Nc1cc(Cl)c(NC(=S)NP(=O)(OCC)OCC)cc1Cl)OCC | Inactive | Inactive | Active | Active | Inactive | Active |  |  |  | 
16 | CCOP(=O)(NC(=S)Nc1cc(C)c(NC(=S)NP(=O)(OCC)OCC)cc1C)OCC | Inactive | Inactive | Active | Active | Active | Active |  |  |  | 
17 | CCOP(=O)(NC(=S)Nc1cc(OC)c(NC(=S)NP(=O)(OCC)OCC)cc1C)OCC | Inactive | Inactive | Active | Active | Inactive | Active |  |  |  | 
18 | CCOP(=O)(NC(=S)Nc1ccc(NC(=S)NP(=O)(OCC)OCC)c(Oc2ccccc2)c1)OCC | Inactive | Inactive | Active | Active | Active | Active |  |  |  | 
19 | CCOP(=O)(NC(=S)Nc1ccccc1NC(=O)NP(=S)(OCC)OCC)OCC | Inactive | Inactive | Active | Inactive | Inactive | Inactive |  |  |  | 
20 | CCOP(=O)(NC(=O)Nc1ccccc1NC(=O)NP(=O)(OCC)OCC)OCC | Inactive | Inactive | Inactive | Inactive | Inactive | Inactive |  |  |  | 
21 | CCOP(=O)(NC(=S)Nc1cc(C)c(NC(=S)NP(=O)(OCC)OCC)c(Cl)c1)OCC | Inactive | Inactive | Active | Active | Active | Active |  |  |  | 
22 | CCOP(=O)(NC(=S)Nc1ccc(NC(=S)NP(=O)(OCC)OCC)c(SC)c1)OCC | Inactive | Inactive | Active | Active | Active | Active |  |  |  | 
23 | CCCSc1cc(NC(=S)NP(=O)(OCC)OCC)c(Cl)cc1NC(=S)NP(=O)(OCC)OCC | Inactive | Inactive | Active | Active | Inactive | Inactive |  |  |  | 
24 | CCCSc1cc(NC(=S)NP(=O)(OCC)OCC)c(C)cc1NC(=S)NP(=O)(OCC)OCC | Inactive | Inactive | Active | Active | Inactive | Active |  |  |  | 
